Test results: patent EP4314010B1, “MODIFIED PEPTIDOMIMETICS AND METHODS OF USE” (dated 2026)

How the values were obtained:
[1] = tested on: P. aeruginosa; assay: P. aeruginosa infection in WT mice, comparison with other agents; conditions: WT mice infected with P. aeruginosa
Description: We then infected WT mice with P. aeruginosa and treated with ELD607, the Orai1 small molecule antagonist YM-58453, dexamethasone or scrambled ELD607.

[2] = tested on: P. aeruginosa POA1; assay: P. aeruginosa infection in Orai1+/- mice and WT littermate controls; conditions: infected and treated
Protocol: ELD607, but not global Orail inhibition or steroids beneficially reduce pulmonary inflammation after P. aeruginosa infection. Orai1^-/- mice have low survival rates, so we used Orai1^+/- mice that have ~70% reduced Ca^2+ influx (Gwack et al. 2008 Mol cell Biol. 28(17):5209-5222). Orai1^+/- mice infected with 10^7 CFU/mouse P. aeruginosa POA1 and treated intranasally 1 h later with 0.5 mg/kg ELD607, were not able to normalize leukocyte levels (FIG. 31, panels A-C). In contrast, WT littermate controls infected with P. aeruginosa and treated with ELD607 had reduced normalized leukocytes similar to naïve mice after ELD607 exposure (FIG. 31, panels B and C). Additionally Orai1^+/- mice infected and then treated with ELD607 were not able to clear bacterial burden in the lungs (FIG. 31, panel D).

[3] = tested on: SARS-CoV-2 S1 pseudovirus; assay: SARS-CoV-2 S1 pseudovirus infection of ACE2-expressing HEK293T cells (DsRed); conditions: ACE2-overexpressing HEK293T cells
Protocol: During infection, increased SOCE and Orai1 activity leads to greater phosphorylation of Ca^2+-sensitive kinases (e.g., calcineurin) and activation of transcription factors (e.g., NFAT) leading to a pro-inflammatory response. […] The results were normalized to the baseline. Thapsigargin (Tg) at 1 µM was used as control. The inhibition of Ca^2+ release after scaffold peptide (ELD100; reference) addition is shown for comparison. […] The results were normalized to the baseline. Thapsigargin (Tg) at 1 µM was used as control. The inhibition of Ca^2+ release after ELD100 (reference) addition is shown for comparison. […] The results were normalized to the baseline. Thapsigargin (Tg) at 1 µM was used as control. The inhibition of Ca^2+ release after ELD100 (reference) addition is shown for comparison. […] The results were normalized to the baseline. Thapsigargin (Tg) at 1 µM was used as control. The inhibition of Ca^2+ release after ELD100 (reference) addition is shown for comparison. […] 1 h later, thapsigargin was added and the change in Fluo-4 fluorescence was measured. […] HEK293T cells were transfected with anti-Orai1 shRNA for 48 h and the change in Fluo4 fluorescence was measured. […] FIG. 16G panels B and C show plots showing fluorescence intensities of Orai1 in macrophages and neutrophils, respectively. *** p<0.001 different as indicated. […]

[4] = tested on: P. aeruginosa; assay: Murine model of P. aeruginosa bacterial pneumonia
Protocol: Further in vivo experiments were performed. Mice were treated intratracheally with 10^7 colony forming units (CFU) of P. aeruginosa 1 hour prior to intranasal treatment with 0.51 mg/kg peptide, in a murine model of bacterial pneumonia. Bronchoalveolar lavage (BAL) and organ collection was performed 24 hours following treatment with peptide (FIG. 15A). […] Moreover, 24 h after infection, about 10^9 CFUs could be detected in murine whole lung homogenate. However, ELD607 caused an ~5 log10 reduction in lung bacteria (FIG. 15D).
Bronchoalveolar lavage (BAL) was collected from mice treated intratracheally with 10^7 colony forming units (CFU) of P. aeruginosa 1 hour prior to intranasal treatment with 0.51 mg/kg peptide, in a murine model of bacterial pneumonia, or vehicle-treated mice. […] Mice were exposed to vehicle or P. aeruginosa ± ELD607 and BAL was obtained and stained with an anti-Orai1 antibody, fluorescent 2° and DAPI. […] FIG. 16G panels B and C show plots showing fluorescent intensities of Orai1 in macrophages and neutrophils, respectively.
To examine Orai1 levels, BAL was then obtained from P. aeruginosa-infected mice, immediately cytospun, fixed in PFA and stained with an antibody against Orai1.

[5] = E. coli LPS sepsis model; conditions: LPS intraperitoneally; 0.5 mg/kg intravenously 1 h later
Protocol: We injected mice intraperitoneally with E. coli LPS, followed by 0.5 mg/kg ELD607 injected intravenously 1 h later. […] Table 1. Sequences of ELD100 peptide (reference) undergoing Alanine scan. The alternative names denote the amino acids changed and their position.

[6] = tested on: mouse hepatitis virus (MHV-A59; a murine coronavirus); assay: Murine coronavirus infection model
Protocol: ELD607 normalized leukocyte composition and viral loads in the airways after murine coronavirus infection. Coronaviruses are emerging pathogens with severe outcomes in the human population. Mice were infected with 10^6 PFU mouse hepatitis virus (MHV-A59; a murine coronavirus) intranasally. The mice were then dosed with 1.0 mg/kg ELD607 or vehicle intranasally 4 days p.i. and then 2 days after dosing with ELD607 (6 days p.i.), mice were sacrificed to collect BAL and lung homogenates. […] Thus, ELD607 beneficially reduces inflammation in both acute and chronic models. Without wishing to be bound to theory, ELD607 may moderate local inflammation in the lung lumen to reduce neutrophilia and allow macrophages to more efficiently clear bacteria without neutrophil-elastase-mediated lung injury.

[7] = E. coli LPS acute respiratory distress syndrome (ARDS) model; conditions: 3 mg/kg LPS intratracheally; 0.5 mg/kg intranasally 1 or 6 h later
Protocol: ELD607 reduces inflammation in an acute respiratory distress syndrome (ARDS) model. Mice were intratracheally to 3 mg/kg E. coli lipopolysaccharide (LPS). 0.5 mg/kg ELD607 was instilled intranasally 1 or 6 h later. As a control, 3 mg/kg dexamethasone was given intranasally.

[8] = 10^7 CFU intratracheally, 0.51 mg/kg intranasal 1 hour later, 24 hours
[9] = 10^6 PFU intranasally, 1.0 mg/kg intranasally 4 days p.i., 6 days p.i.

## CC[C@H](C)[C@H](NC(=O)[C@H](CC(C)C)NC(=O)[C@H](CCSC)NC(=O)[C@H](CC(N)=O)NC(=O)[C@@H](NC(=O)[C@@H](NC(=O)[C@H](CC(=O)O)NC(=O)[C@H](Cc1c[nH]cn1)NC(=O)[C@@H](N)C(C)C)[C@@H](C)CC)C(C)C)C(=O)N[C@@H](CCCNC(=N)N)C(=O)NCC(=O)O
[1]
  bacterial infections (lung CFU): significantly reduced
  neutrophilia: significantly reduced neutrophilia
[2]
  leukocyte levels in WT littermate controls: had reduced normalized leukocytes similar to naïve mice
[3]
  pseudovirus infection (DsRed fluorescence): significantly reduced infection
[4]; [8]
  BAL monocytes: significantly retained monocyte levels
  BAL neutrophils: reduced neutrophil levels
[4]; 24 hours post treatment
  bacterial counts in the spleen: reduced bacterial counts in the spleen
[4]; BAL
  Total protein: significantly reduced
  lactate dehydrogenase (LDH) levels: significantly reduced
  neutrophil elastase levels: significantly reduced
[4]; BAL cytokine levels
  Macrophage Inflammatory Protein 2 (MIP-2), also known as CXCL2: reduced
  interleukin-17 (IL-17): reduced
[4]; cytokine levels
  IL-6: reduced
  interleukin-1β (IL-1β): reduced
  tumor necrosis factor-α (TNF-α): reduced
[4]; infected animals
  lung histology: normalization of alveoli
[4]; intranasal 10^7 CFU/ml P. aeruginosa
  total weight loss: prevented the total weight loss
[4]; peptide added 24 hours after infection
  BAL neutrophils, delayed treatment: reduced
[5]
  blood macrophages: significantly increased blood macrophages
  blood neutrophilia: significantly reduced blood neutrophilia
  weight loss: significant prevented weight loss
[6]; [9]
  lung lymphocyte levels (B cells and T cells): significantly reduced lung lymphocyte levels
  lung monocyte and macrophage levels: normalized lung monocyte and macrophage levels
[6]; after one dose of 1.0 mg/kg
  viral loads in the lungs and BAL: significantly reduced
[7]
  BAL neutrophilia: attenuated BAL neutrophilia
  lung damage caused by LPS: significantly reduced lung damage
  weight loss: reduced weight loss

Structures were worked out from names or drawings and are uncertain.
